A mixed list of measured activities; the numbers were collected in NIAID ChemDB.

Common to all: growth or infection tests; species: Hepatitis C virus; read-out: EC50

Blank or dashed fields: not listed here. a–b is a range or a potency band. ECn: concentration that inhibits the pathogen or its effect by n%. Rows are shuffled and stem from different studies.

| smiles | setting | strain | cells | method | value |
|---|---|---|---|---|---|
| O=C(O)c1c(-c2cccc(O)c2F)c2c3occc3c(F)cc2n1Cc1ccccc1F |  |  |  | replicon | 0.5–1.5 µM |
| O=C(O)c1ccc2c(C3CCCCC3)c3n(c2c1)CC=Cc1ncccc1-3 |  |  | Huh7 | replicon | 1–10 µM |
| CC1(C)CC(=O)C2=C(C1)Nc1c(O)cccc1N(C(=O)NCc1ccoc1)C2c1ccc(Cl)cc1Cl |  | 1b |  | luciferase / reporter gene / replicon | 7.28 µM |
| NC(=O)COc1ccc2c(c1)S(=O)(=O)N=C(c1c(O)c3cc(F)ccc3n(CCC3CC3)c1=O)N2 |  | 1a 36941 |  | replicon | 0.18 µM |
| CC1CCC(C(=O)N(c2cc(-c3ccc(NC(=O)c4cscn4)cc3)sc2C(=O)O)C2COCOC2)CC1 |  | 1a |  | replicon | <0.5 µM |
| NC(=S)Nc1cccc(OCCCCCCCc2ccccc2)c1 |  |  | Ava5-EG(delta4AB)SEAP | reporter gene / fluorescence | 0.001–1 µM |
| CCCCCOc1ccc(N(C(=O)OC)c2nc(-c3cccnc3)cs2)cc1C(F)(F)F |  |  |  |  | <1 µM |
| COc1c(-c2ccc3cc(NS(C)(=O)=O)ccc3c2)cc(-n2ccc(=O)[nH]c2=O)cc1C(C)(C)C | 40% human plasma | genotype 1b Con1 |  | luciferase | 0.021 µM |
| O=C(O)/C=C/c1ccc(NC(=O)C2(NC(=O)c3ccc4c(C5CCCCC5)c5n(c4c3)CCCc3nccnc3-5)CCCC2)cc1 |  |  | Huh7 | replicon | 0.01–1 µM |
| NC(=S)Nc1cccc(OCCCCCCOc2cccc3ccccc23)c1 |  |  | Ava5-EG(delta4AB)SEAP | reporter gene / fluorescence | 0.001–1 µM |
| O=C(O)c1c(-c2ccc[nH]c2=O)c2c3occc3c(F)cc2n1Cc1ccccc1F |  |  |  | replicon | <0.5 µM |
| CCOc1nc(N)nc2ccc(-c3cccc(NS(=O)(=O)c4ccc(NC(C)=O)s4)c3)nc12 |  |  | Huh7 | replicon | <0.3 µM |
| O=C(O)c1c(-c2ccc[nH]c2=O)c2c3occc3c(F)cc2n1Cc1cc2ccccc2[nH]c1=O |  |  |  | replicon | <0.5 µM |
| CCOc1nc(NCc2ccc(S(N)(=O)=O)cc2)nc2ccc(-c3ccc(NC(=O)C4(O)CC4)cc3)nc12 |  |  |  | replicon | <0.1 µM |
| CC1CCC(C(=O)N(c2cc(-c3ccc(NC(=O)c4cscn4)cc3)sc2C(=O)[O-])C(C)C)CC1.[NH4+] |  | 1b |  | replicon | <0.5 µM |
| COC(=O)/C=C/c1ccc(NC(=O)C2(NC(=O)c3ccc4c(C5CCCCC5)c5n(c4c3)CCCc3ocnc3-5)CCCC2)cc1 |  |  | Huh7 | replicon | 1–10 µM |
| CN1CCN(c2cc3c(cc2F)c(=O)c(-c2noc(Cc4ccc(F)cc4)n2)cn3Cc2ccc(C(F)(F)F)cc2F)CC1 |  | 1b |  | replicon | >10 µM |
| CC(C)S(=O)(=O)NC(=O)c1c(-c2ccc[nH]c2=O)c2c3occc3ccc2n1Cc1cc(F)ccc1F |  |  |  | replicon | <0.5 µM |
| NC(=S)Nc1cccc(OCCCCCOc2cccc(Cc3ccccc3)c2)c1 |  |  | Ava5-EG(delta4AB)SEAP | reporter gene / fluorescence | 0.001–1 µM |
| NS(=O)(=O)c1ccc(CNc2nc(NCC(F)(F)F)c3nc(-c4ccc(F)c(S(=O)(=O)N5CCNCC5)c4)ccc3n2)cc1 |  |  |  | replicon | <0.1 µM |
| CCCCCOc1ccc(N(CC(=O)N(CC)CC)c2nc(-c3cccnc3)cs2)cc1C(F)(F)F |  |  |  |  | >10 µM |
| CCOC(=O)/C=C/c1ccc(NC(=O)C2(NC(=O)c3ccc4c(C5CCCCC5)c5n(c4c3)CCCc3ncccc3-5)CCCC2)cc1 |  |  | Huh7 | replicon | 0.01–1 µM |
| O=C(Cc1ccccc1)N/N=C/c1ccccc1OS(=O)(=O)c1cccc2ccccc12 |  |  | Huh7 | replicon | >50 µM |
| NC(=O)CNc1cc2c(cc1F)c(=O)c(-c1noc(Cc3ccccc3)n1)cn2Cc1ccc(C(F)(F)F)cc1F |  | 1b |  | replicon | <0.5 µM |
| COC(=O)c1ccc2c(C3CCCCC3)c3n(c2c1)CNc1ccccc1-3 |  |  | Huh7 | replicon | 0.01–1 µM |
| CN1CCN(c2cc3c(cc2F)c(=O)c(-c2noc(C(CC#N)c4ccccc4)n2)cn3Cc2ccc(Cl)cc2)CC1 |  | 1b |  | replicon | >10 µM |
| CCCCCOc1ccc(N(C(=O)C(=O)OC)c2nc(-c3ccc4[nH]c(=O)oc4c3)cs2)cc1C(F)(F)F |  |  |  |  | <1 µM |
| CCOc1ccccc1C(=O)N/N=C/c1ccccc1OS(=O)(=O)c1ccc(C(F)(F)F)cc1 |  |  | Huh7 | replicon | >50 µM |
| NC(=S)Nc1cccc(OCCCCCOc2c(Cl)cc(F)cc2Cl)c1 |  |  | Ava5-EG(delta4AB)SEAP | reporter gene / fluorescence | 0.001–1 µM |
| O=c1c(-c2noc(Cc3ccccc3)n2)cn(Cc2ccc(C(F)(F)F)cc2F)c2cc(N3CCCNCC3)c(F)cc12 |  | 1b |  | replicon | <2 µM |
| COc1cccc(CC(=O)N/N=C/c2ccccc2S(=O)(=O)c2ccc(C)cc2)c1 |  |  | Huh7 | replicon | 5–50 µM |
| CCOc1nc(N)nc2ccc(-c3ccc(NS(C)(=O)=O)cc3)nc12 |  |  | Huh7 | replicon | >1 µM |
| O=c1c(-c2noc(Cc3ccccc3)n2)cn(Cc2ccc(C(F)(F)F)cc2)c2cc(N3CCNCC3)c(F)cc12 |  | 1b |  | replicon | <0.5 µM |
| Cn1c(C(=O)O)cc2cc(NC(=O)C3(NC(=O)c4ccc5c(C6CCCCC6)c6n(c5c4)CCNc4ccccc4-6)CCCC3)ccc21 |  |  | Huh7 | replicon | 0.01–1 µM |
| CC1CCC(C(=O)N(c2cc(-c3ccc(NC(=O)c4ccoc4)cc3)sc2C(=O)O)C(C)C)CC1 |  | 1b |  | replicon | <0.5 µM |
| CS(=O)(=O)NC(=O)c1c(-c2ccc[nH]c2=O)c2c3c(ccc2n1Cc1cc(F)ccc1F)CCCO3 |  |  |  | replicon | <1 µM |
| CC(C)(N)C(=O)Nc1ccc(-c2ccc3nc(NCc4ccc(S(N)(=O)=O)cc4)nc(NCCS(C)(=O)=O)c3n2)cc1 |  |  |  | replicon | 0.1–0.25 µM |
| CCCCCCCCOc1ccc(N(C(=O)CO)c2nc(-c3cccnc3)c(F)s2)cc1C(F)(F)F |  |  |  |  | <1 µM |
| CN(CC(O)CO)C(=O)C1=Cc2ccccc2-c2c(C3CCCCC3)c3ccc(C(=O)NS(=O)(=O)N(C)C)cc3n2C1 |  |  | Huh7 | replicon | 0.01–1 µM |
| CC1(C)CC(=O)C2=C(C1)Nc1c(O)cccc1NC2c1cccnc1N |  | 1b |  | luciferase / reporter gene / replicon | >100 µM |
| CCOc1nc(NCc2ccc(F)cc2)nc2ccc(-c3ccc(N4CC(O)CC4=O)cc3)nc12 |  |  |  | replicon | <0.1 µM |
| CCS(=O)(=O)NC(=O)c1c(-c2ccc[nH]c2=O)c2c3occc3ccc2n1Cc1cc(F)ccc1F |  |  |  | replicon | <0.5 µM |
| CC1(C)CC(=O)C2=C(C1)Nc1c(O)cccc1N(C(=O)CCC(=O)Nc1ccccc1F)C2c1ccc(OCc2ccccc2)cc1Cl |  | 1b |  | luciferase / reporter gene / replicon | 1.3 µM |
| COc1cc(-c2ccc3nc(NCc4ccc(S(N)(=O)=O)cc4)nc(NCC(F)(F)F)c3n2)ccn1 |  |  |  | replicon | <0.1 µM |
| O=C(Cc1cnc[nH]1)N/N=C/c1ccccc1OS(=O)(=O)c1ccc(C(F)(F)F)cc1 |  |  | Huh7 | replicon | <5 µM |
| CCn1cc(C(=O)Nc2ccc(-c3cc(N(C(=O)C4CCC(C)CC4)C(C)C)c(C(=O)O)s3)cc2)cn1 |  | 1a |  | replicon | >0.5 µM |
| O=C(COc1ccccc1)N/N=C/c1ccccc1OS(=O)(=O)c1ccc(C(F)(F)F)cc1 |  |  | Huh7 | replicon | <5 µM |
| NS(=O)(=O)c1ccc(CNc2nc(OC3CCCC3)c3nc(-c4ccc(F)cc4)ccc3n2)cc1 |  |  |  | replicon | <0.1 µM |
| CC(C)c1ccc(S(=O)(=O)Oc2ccccc2/C=N/NC(=O)Cc2ccccc2)cc1 |  |  | Huh7 | replicon | <5 µM |
| NC(=O)Nc1ccc(-c2ccc3nc(NCc4ccc(S(N)(=O)=O)cc4)nc(C4CC4)c3n2)cc1 |  |  |  | replicon | <0.1 µM |
| COc1ccc(CC(=O)N/N=C/c2ccccc2N(C)S(=O)(=O)c2ccc(C(F)(F)F)cc2)cc1OC |  |  | Huh7 | replicon | <5 µM |
| NC(=S)Nc1ccc2c(c1)C(=O)c1cc(Br)ccc1-2 |  |  | Ava5-EG(delta4AB)SEAP | reporter gene / fluorescence | 0.001–1 µM |
| COc1cc2c(=O)c(-c3noc(Cc4ccccn4)n3)cn(Cc3ccc(Cl)cc3)c2cc1OC |  | 1b |  | replicon | >10 µM |
| CC1(C)CC(=O)C2=C(C1)Nc1c(O)cccc1NC2c1ccc(S(C)(=O)=O)cc1Cl |  | 1b |  | luciferase / reporter gene / replicon | 90.56 µM |
| O=C(N/N=C/c1ccccc1OS(=O)(=O)c1ccc(C(F)(F)F)cc1)OCc1ccccc1 |  |  | Huh7 | replicon | <5 µM |
| O=C(O)c1ccc2c(C3CCCCC3)c3n(c2c1)CCCCNc1ccccc1-3 |  |  | Huh7 | replicon | 0.01–1 µM |
| O=C(O)c1c(-c2ccc[nH]c2=O)c2c3sccc3ccc2n1Cc1ccccc1F |  |  |  | replicon | 0.5–1.5 µM |
| O=C(Cc1cncc(Br)c1)N/N=C/c1ccccc1OS(=O)(=O)c1ccc(C(F)(F)F)cc1 |  |  | Huh7 | replicon | <5 µM |
| CC1CCC(C(=O)N(c2cc(-c3ccc(NC(=O)c4cn(C)cn4)cc3)sc2C(=O)O)C2CCC2)CC1 |  | 1a |  | replicon | <0.5 µM |
| CC1(C)CC(=O)C2=C(C1)Nc1c(O)cccc1N(C(=O)CCC(=O)O)[C@H]2c1ccc(OCc2ccccc2)cc1Cl |  | 1b |  | luciferase / reporter gene / replicon | 52.82 µM |

A second listing of 9 rows from above:

smiles,setting,strain,cells,method,value
NC(=O)COc1ccc2c(c1)S(=O)(=O)N=C(c1c(O)c3cc(F)ccc3n(CCC3CC3)c1=O)N2,,1a 36941,,replicon,0.18 µM
CC(C)(N)C(=O)Nc1ccc(-c2ccc3nc(NCc4ccc(S(N)(=O)=O)cc4)nc(NCCS(C)(=O)=O)c3n2)cc1,,,,replicon,0.1–0.25 µM
CCOC(=O)/C=C/c1ccc(NC(=O)C2(NC(=O)c3ccc4c(C5CCCCC5)c5n(c4c3)CCCc3ncccc3-5)CCCC2)cc1,,,Huh7,replicon,0.01–1 µM
O=C(Cc1cnc[nH]1)N/N=C/c1ccccc1OS(=O)(=O)c1ccc(C(F)(F)F)cc1,,,Huh7,replicon,<5 µM
CC1CCC(C(=O)N(c2cc(-c3ccc(NC(=O)c4cscn4)cc3)sc2C(=O)[O-])C(C)C)CC1.[NH4+],,1b,,replicon,<0.5 µM
O=C(O)/C=C/c1ccc(NC(=O)C2(NC(=O)c3ccc4c(C5CCCCC5)c5n(c4c3)CCCc3nccnc3-5)CCCC2)cc1,,,Huh7,replicon,0.01–1 µM
CC1(C)CC(=O)C2=C(C1)Nc1c(O)cccc1N(C(=O)CCC(=O)O)[C@H]2c1ccc(OCc2ccccc2)cc1Cl,,1b,,luciferase / reporter gene / replicon,52.82 µM
NC(=S)Nc1cccc(OCCCCCCOc2cccc3ccccc23)c1,,,Ava5-EG(delta4AB)SEAP,reporter gene / fluorescence,0.001–1 µM
CN(CC(O)CO)C(=O)C1=Cc2ccccc2-c2c(C3CCCCC3)c3ccc(C(=O)NS(=O)(=O)N(C)C)cc3n2C1,,,Huh7,replicon,0.01–1 µM